## Sequence variants of PSTVd loop 15 after infection

Reference: Wu et al. 2024, doi:10.1371/journal.ppat.1012142.

The pool varies loop 15 of the PSTVd intermediate strain in the pattern GGAAACCGNNNNNNC; wild type is GGAAACCGCUACUAC (upper and lower strand joined, each 5' to 3', the first 7 letters being the upper strand, closing pairs included).

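A pool of all variants was put on leaves of three Nicotiana benthamiana plants. Samples came from the inoculated region at 5 days, the leaf margin at 10 and upper systemic leaves at 12.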

Numbers give reads per thousand; 0 = not seen among the reads, higher = more abundant.
Each site shows the three plants.
"Pool" is the share in the plasmid pool used as inoculum, on the same scale.
The inoculated region was read from the minus strand, the other sites from the plus strand.
IR is the inoculated region, LM the leaf margin, Sys the systemic leaves.

sequence | pool | IR | LM | Sys
GGAAACCGUCGCACC | 0.208 | 0.0983 / 0.257 / 0.0762 | 0.0162 / 0 / 0.0200 | 0 / 0 / 0
GGAAACCGUCGCAGC | 0.288 | 0.0164 / 0.0321 / 0.0381 | 0.0162 / 0 / 0.0401 | 0 / 0 / 0.0228
GGAAACCGUCGCAUC | 0.256 | 0.164 / 0.129 / 0.171 | 0.0323 / 0.0223 / 0.0200 | 0 / 0 / 0
GGAAACCGUCGCCAC | 0.208 | 0.0655 / 0.0964 / 0.0952 | 0.0162 / 0.0223 / 0 | 0 / 0 / 0
GGAAACCGUCGCCCC | 0.320 | 0.0491 / 0.0964 / 0.114 | 0.0162 / 0.0223 / 0.0401 | 0 / 0 / 0
GGAAACCGUCGCCGC | 0.256 | 0.0655 / 0.112 / 0.133 | 0.0162 / 0 / 0.0200 | 0 / 0 / 0
GGAAACCGUCGCCUC | 0.352 | 0.0819 / 0.112 / 0.0571 | 0.0162 / 0.0223 / 0 | 0 / 0 / 0
GGAAACCGUCGCGAC | 0.192 | 0.0655 / 0.145 / 0.0952 | 0 / 0 / 0.0200 | 0 / 0 / 0
GGAAACCGUCGCGCC | 0.240 | 0.164 / 0.112 / 0.0762 | 0.0162 / 0 / 0 | 0 / 0 / 0
GGAAACCGUCGCGGC | 0.240 | 0.0655 / 0.145 / 0.0381 | 0.0162 / 0 / 0.0401 | 0 / 0 / 0
GGAAACCGUCGCGUC | 0.208 | 0.0983 / 0.112 / 0.0952 | 0 / 0 / 0 | 0.0161 / 0 / 0
GGAAACCGUCGCUAC | 0.112 | 0.164 / 0.209 / 0.343 | 0.162 / 0.0668 / 0.120 | 0.0483 / 0 / 0
GGAAACCGUCGCUCC | 0.288 | 0.0491 / 0.0803 / 0.114 | 0 / 0 / 0.0200 | 0 / 0 / 0
GGAAACCGUCGCUGC | 0.176 | 0.180 / 0.0643 / 0.0762 | 0 / 0 / 0.0200 | 0.0161 / 0 / 0
GGAAACCGUCGCUUC | 0.192 | 0.0655 / 0.112 / 0.0571 | 0 / 0.0223 / 0.0401 | 0 / 0 / 0
GGAAACCGUCGGAAC | 0.160 | 0.0819 / 0.0482 / 0.0762 | 0.0162 / 0 / 0.0200 | 0 / 0 / 0
GGAAACCGUCGGACC | 0.256 | 0.180 / 0.129 / 0.0952 | 0.0162 / 0 / 0.0200 | 0 / 0 / 0
GGAAACCGUCGGAGC | 0.288 | 0.131 / 0.0643 / 0.0571 | 0 / 0.0445 / 0 | 0 / 0 / 0
GGAAACCGUCGGAUC | 0.224 | 0.0983 / 0.129 / 0.0381 | 0 / 0 / 0.0401 | 0 / 0 / 0
GGAAACCGUCGGCAC | 0.256 | 0.0655 / 0.0803 / 0.133 | 0 / 0 / 0 | 0 / 0 / 0
GGAAACCGUCGGCCC | 0.208 | 0.0655 / 0.0482 / 0.171 | 0.0162 / 0 / 0.0200 | 0 / 0 / 0.0228
GGAAACCGUCGGCGC | 0.192 | 0.180 / 0.0482 / 0.0952 | 0.0162 / 0 / 0 | 0.0161 / 0 / 0
GGAAACCGUCGGCUC | 0.144 | 0.0655 / 0.161 / 0.0952 | 0 / 0 / 0.0401 | 0 / 0 / 0
GGAAACCGUCGGGAC | 0.208 | 0.0655 / 0.112 / 0.0952 | 0 / 0 / 0.0401 | 0 / 0 / 0
GGAAACCGUCGGGCC | 0.240 | 0.131 / 0.112 / 0.0952 | 0 / 0.0223 / 0.0200 | 0 / 0 / 0
GGAAACCGUCGGGGC | 0.160 | 0.0655 / 0.161 / 0.133 | 0 / 0.0223 / 0.0401 | 0 / 0 / 0
GGAAACCGUCGGGUC | 0.160 | 0.0655 / 0.0964 / 0.0381 | 0.0162 / 0 / 0.0401 | 0 / 0 / 0
GGAAACCGUCGGUAC | 0.192 | 0.360 / 0.289 / 0.343 | 0.162 / 0.111 / 0.180 | 0 / 0.0151 / 0.0912
GGAAACCGUCGGUCC | 0.240 | 0.115 / 0.0643 / 0.0571 | 0 / 0.0445 / 0 | 0 / 0 / 0
GGAAACCGUCGGUGC | 0.288 | 0.328 / 0.418 / 0.267 | 0.0323 / 0.134 / 0.160 | 0.0322 / 0 / 0
GGAAACCGUCGGUUC | 0.320 | 0.377 / 0.225 / 0.343 | 0.0970 / 0.0445 / 0.200 | 0.0161 / 0.0756 / 0.182
GGAAACCGUCGUAAC | 0.192 | 0.164 / 0.145 / 0.114 | 0 / 0 / 0 | 0.0161 / 0 / 0
GGAAACCGUCGUACC | 0.240 | 0.180 / 0.0321 / 0.0952 | 0.0485 / 0 / 0 | 0 / 0 / 0
GGAAACCGUCGUAGC | 0.192 | 0.0164 / 0.112 / 0.171 | 0.0162 / 0.0445 / 0.0401 | 0.0161 / 0 / 0
GGAAACCGUCGUAUC | 0.112 | 0.0819 / 0.0964 / 0.114 | 0.0162 / 0 / 0.0401 | 0 / 0 / 0
GGAAACCGUCGUCAC | 0.112 | 0.147 / 0.0803 / 0.133 | 0 / 0 / 0.0401 | 0 / 0 / 0
GGAAACCGUCGUCCC | 0.208 | 0.0491 / 0 / 0.0381 | 0 / 0 / 0.0200 | 0 / 0 / 0
GGAAACCGUCGUCGC | 0.240 | 0.0328 / 0.0482 / 0.0762 | 0 / 0 / 0 | 0 / 0 / 0
GGAAACCGUCGUCUC | 0.288 | 0.0983 / 0.112 / 0.0190 | 0 / 0 / 0.0601 | 0 / 0 / 0
GGAAACCGUCGUGAC | 0.176 | 0.0819 / 0.0803 / 0.114 | 0.0162 / 0.0223 / 0 | 0 / 0 / 0.0228
GGAAACCGUCGUGCC | 0.304 | 0.0819 / 0.0964 / 0.209 | 0 / 0 / 0 | 0 / 0 / 0
GGAAACCGUCGUGGC | 0.272 | 0.0983 / 0.0643 / 0.0381 | 0 / 0 / 0 | 0 / 0 / 0
GGAAACCGUCGUGUC | 0.0960 | 0.147 / 0.177 / 0.171 | 0 / 0 / 0.0200 | 0 / 0 / 0
GGAAACCGUCGUUAC | 0.192 | 0.344 / 0.209 / 0.457 | 0.0970 / 0.0668 / 0.240 | 0.0483 / 0 / 0
GGAAACCGUCGUUCC | 0.272 | 0.0491 / 0.177 / 0.0952 | 0 / 0 / 0 | 0 / 0 / 0
GGAAACCGUCGUUGC | 0.240 | 0.115 / 0.0482 / 0.190 | 0.0485 / 0 / 0.0200 | 0.0161 / 0 / 0
GGAAACCGUCGUUUC | 0.208 | 0.0983 / 0.0482 / 0.0381 | 0.0162 / 0 / 0.0200 | 0 / 0 / 0
GGAAACCGUCUAAAC | 0.272 | 0.0655 / 0.0803 / 0.0762 | 0.0162 / 2.09 / 0 | 0 / 0 / 0
GGAAACCGUCUAACC | 0.336 | 0.115 / 0.0643 / 0.0762 | 0.0162 / 0 / 0.0200 | 0 / 0 / 0
GGAAACCGUCUAAGC | 0.272 | 0.115 / 0.161 / 0.0571 | 0 / 0 / 0.0200 | 0.0161 / 0 / 0
GGAAACCGUCUAAUC | 0.240 | 0.0819 / 0.129 / 0.152 | 0.0162 / 0 / 0.0200 | 0.0161 / 0 / 0
GGAAACCGUCUACAC | 0.288 | 0.115 / 0.0643 / 0.0952 | 0 / 0.0223 / 0 | 0 / 0 / 0.0228
GGAAACCGUCUACCC | 0.256 | 0.147 / 0.0964 / 0.133 | 0.0162 / 0 / 0.0401 | 0 / 0 / 0
GGAAACCGUCUACGC | 0.352 | 0.164 / 0.112 / 0.0571 | 0 / 0 / 0 | 0 / 0 / 0
GGAAACCGUCUACUC | 0.160 | 0.131 / 0.129 / 0.0571 | 0 / 0 / 0.0200 | 0.0161 / 0 / 0

5 of these entries, quoted again:

* GGAAACCGUCUACCC (pool 0.256) = IR 0.147 / 0.0964 / 0.133; LM 0.0162 / 0 / 0.0401; Sys 0 / 0 / 0
* GGAAACCGUCGCUCC (pool 0.288) = IR 0.0491 / 0.0803 / 0.114; LM 0 / 0 / 0.0200; Sys 0 / 0 / 0
* GGAAACCGUCGCGUC (pool 0.208) = IR 0.0983 / 0.112 / 0.0952; LM 0 / 0 / 0; Sys 0.0161 / 0 / 0
* GGAAACCGUCGCAUC (pool 0.256) = IR 0.164 / 0.129 / 0.171; LM 0.0323 / 0.0223 / 0.0200; Sys 0 / 0 / 0
* GGAAACCGUCGGAGC (pool 0.288) = IR 0.131 / 0.0643 / 0.0571; LM 0 / 0.0445 / 0; Sys 0 / 0 / 0

The authors trace changes outside the varied positions to PCR and sequencing errors or to mutation in the plant; presence does not show that a variant is infectious alone.
Samples held 43,870 to 66,106 reads, so the smallest values rest on one or two reads.
For reference, wild type rose from 33.9 per thousand in the pool to 202, 200, 159 (inoculated region), 724, 746, 710 (leaf margin) and 856, 883, 880 (systemic leaves).